Pooled drug test results. Numbers come from NIAID ChemDB, via PubChem.

Shared fields: tests on isolated targets; species: HIV-1; target: Tat:TAR/LTR

ICn: concentration for n% inhibition. Blank or dashed fields: not listed here. Conditions beyond the fields shown may differ between rows.

structure | read by | measure | result
NCCCCN(CCCN)CCNC(=O)c1c2ccccc2nc2ccccc12 | gel | IC50 | >1 µM
CC(=O)NCCN(CCC(=O)NCCN(CCC(=O)NCCN(CCC(=O)NCCN(CCC(=O)NCCN(CCC(=O)NCCC(N)=O)C(=O)[C@@H](N)Cc1ccccc1)C(=O)[C@@H](N)CCCN=C(N)N)C(=O)[C@@H](N)Cc1ccccc1)C(=O)[C@@H](N)CCCCN)C(=O)[C@@H](N)Cc1ccccc1 | FRET / fluorescence | IC50 | 1.1 µM
COc1ccc2nc3cc(Cl)ccc3c(NCCCN(CCCCCCN)CCCCCCN)c2c1 | gel | IC50 | 0.082 µM
Cn1cc(C(=O)O)c(=O)c2cc(N)c(N3CCN(c4ccccn4)CC3)cc21 | gel | Ki | 3.5 µM
NCCCOc1ccc(-c2ccccn2)cc1CNCC1CCNCC1 | FRET | Ki | 0.428 µM
NCCCCN(CCCN)CCNc1c2ccccc2nc2ccccc12 | gel | IC50 | 0.023 µM
c1ccc2sc(Oc3ccc(-c4cc5ccccc5s4)cc3CNCCN3CCNCC3)cc2c1 | FRET | Ki | 2.89 µM
COc1ccc2nc3cc(Cl)ccc3c(NCCCCCN(CCCN)CCCCN)c2c1 | gel | IC50 | 0.039 µM
NCCCOc1ccc(-c2cc3ccccc3s2)cc1CNCC1CCNCC1 | FRET | Ki | 0.476 µM
CC(=O)NCCN(CCC(=O)NCCN(CCC(=O)NCCN(CCC(=O)NCCN(CCC(=O)NCCN(CCC(=O)NCCC(N)=O)C(=O)[C@@H](N)Cc1ccccc1)C(=O)[C@@H](N)CCCN=C(N)N)C(=O)[C@@H](N)Cc1ccccc1)C(=O)[C@@H](N)Cc1ccccc1)C(=O)[C@@H](N)CCCCN | FRET / fluorescence | IC50 | >2 µM
CNC(=O)[C@@H](Cc1ccccc1)NP(=O)(O)OC[C@H]1O[C@@H](n2cc(C)c(=O)[nH]c2=O)C[C@@H]1N=[N+]=[N-] | fluorescence | Ki | 0.03 µM
COc1ccc(OCCCN)c(CNCCCCN=C(N)N)c1 | FRET | Ki | 3.4 µM
CC(=O)NCCN(CCC(=O)NCCN(CCC(=O)NCCN(CCC(=O)NCCN(CCC(=O)NCCN(CCC(=O)NCCC(N)=O)C(=O)[C@@H](N)Cc1ccccc1)C(=O)[C@@H](N)CCCN=C(N)N)C(=O)[C@@H](N)Cc1ccccc1)C(=O)[C@@H](N)CCCN=C(N)N)C(=O)[C@@H](N)CCCN=C(N)N | FRET / fluorescence | IC50 | 0.101 µM
COc1ccc(OCCN=C(N)N)c(CNCCCCN=C(N)N)c1 | FRET | Ki | 1.3 µM
COC1CC[C@@H](OCCCN=C(N)N)[C@@H](COCCCN=C(N)N)O1 | FRET | Ki | 2.5 µM
COc1ccc2nc3cc(Cl)ccc3c(NCCCCN(CCCN)CCCCN)c2c1 | gel | IC50 | 0.076 µM
NC(=O)c1ccn2c1CS[C@@H]2c1cccnc1 |  | Ki | >100 µM
NCCCOc1ccc(-c2ccc3[nH]ccc3c2)cc1CNCCN1CCNCC1 | FRET | Ki | 0.039 µM
COc1ccc2nc3cc(Cl)ccc3c(NCCCN(CCCCN)CCCCN)c2c1 | gel | IC50 | 0.044 µM
NCCCC[C@@H]1NC(=O)[C@H](CCCN=C(N)N)NC(=O)[C@H](Cc2ccccc2)NC(=O)[C@H](CCCN=C(N)N)NC(=O)[C@H](CCCN=C(N)N)NC1=O | FRET | Ki | 1.87 µM
NCCCOc1ccc(-c2ccc3ccccc3c2)cc1CNCCCCN=C(N)N | FRET | Ki | 0.43 µM
NCCCC[C@H](COC(=O)O)NC(=O)CN(CCCCN)C(=O)OC[C@@H](N)CCCN=C(N)N | nucleotide incorporation / radiometric | Ki | 1 µM

2 of the rows above, restated:

structure | read by | measure | result
NCCCOc1ccc(-c2ccc3ccccc3c2)cc1CNCCCCN=C(N)N | FRET | Ki | 0.43 µM
NCCCOc1ccc(-c2cc3ccccc3s2)cc1CNCC1CCNCC1 | FRET | Ki | 0.476 µM